Pooled drug test results. Numbers come from NIAID ChemDB, via PubChem.

Common to all: tests in culture; species: Mycobacterium tuberculosis

Two numbers with a dash give a range or band. MIC bound comes from a single tested concentration. ECn: concentration that inhibits the pathogen or its effect by n%. Conditions beyond the fields shown may differ between rows. Inhibition is in % at the dose shown (toxicity tests: loss of growth or viability). MIC50, MIC90 and the like: level of inhibition, or share of isolates inhibited. An empty or dashed field is not shown. For "inactive" no cut-off is given.

structure	cell line	method	mutations	read-out	strain or isolate	tested at	result
CC(=O)/C(=C/C=C/c1ccccc1)[N+](=O)[O-]	-	visual reading	-	MIC	H37Rv	-	16 µg/mL
CCCc1cnc(C(=O)/C=C/c2ccc(N(C)C)cc2)cn1	-	-	-	EC50	H37Rv	-	>12.5 µg/mL
O=C(C/C(=N\NC(=O)C[n+]1ccccc1)C(=O)Nc1nc2ccc([N+](=O)[O-])cc2s1)CC(c1ccccc1)c1c(O)c2ccccc2oc1=O.[Cl-]	-	BACTEC	-	inhibition	H37Rv	12.5 µg/mL	13%
Cc1c(NC(=O)CSc2nnc(-c3ccco3)n2C2CCCCC2)c(=O)n(-c2ccccc2)n1C	-	resazurin	-	MIC	H37Rv	-	>6.25 µg/mL
C[C@]12CC[C@H](OS(=O)(=O)O)CC1=CC[C@@H]1[C@@H]2CC[C@]2(C)C(=O)CC[C@@H]12	-	resazurin	-	MIC bound	H37Rv	-	>6.25 µg/mL
Nc1ccc(NC2=C(N3CCCCC3)C(=O)c3ccccc3C2=O)cc1	-	visual reading	-	MIC	Clinical isolate	-	16 µg/mL
CO/C(=N\N=C\c1cccc(C(F)(F)F)c1)c1ccncc1	-	BACTEC	-	inhibition	-	0.5 µM	0%
CC(=O)c1cccc(NC(=O)/C=C/c2ccc([N+](=O)[O-])cc2)c1	-	visual reading	-	MIC	H37Rv	-	16 µg/mL
CCCCn1c(SCC(=O)Nc2c(C)n(C)n(-c3ccccc3)c2=O)nnc1-c1ccco1	-	resazurin	-	MIC	H37Rv	-	>6.25 µg/mL
CCCCc1cnc(C(=O)/C=C/c2ccc(N(C)C)cc2)cn1	-	-	-	EC50	H37Rv	-	>12.5 µg/mL
O=C(Nc1ccccc1)SCCSC(=S)N1CCCC1	-	BACTEC	-	MIC bound	H37Rv	-	>12.5 µg/mL
CCCCCCCOc1ccc(Cc2cnc(N)nc2N)cc1OC	-	-	-	MIC	H37Rv	-	23.2 µM
CC(=O)Nc1ccc(/C=N/NC(N)=S)cc1	-	-	-	MIC	Frankfurt	-	0.1 µg/mL
CN(/N=C/c1csc2ccccc12)c1ccccc1	-	resazurin	-	inhibition	H37Rv (ATCC 27294)	6.25 µg/mL	34%
COc1cc(/C=C/C(=O)c2cnc(CC(C)C)cn2)ccc1O	-	-	-	EC50	H37Rv	-	<12.5 µg/mL
O=S(=O)(O)CCCN1c2ccccc2Sc2ccccc21	-	fluorescence	gfp	MIC	H37Rv-GFP	-	12.5 µg/mL
CN1CCC(CN2c3ccccc3Sc3ccccc32)C1	-	-	-	MIC	H37RV 102	-	10 µg/mL
CN(C)/N=C/c1c[nH]c2ccccc12	-	resazurin	-	inhibition	H37Rv (ATCC 27294)	6.25 µg/mL	9%
S=C(NC1CCCCC1)SC(=S)NC1CCCCC1	-	resazurin	-	MIC bound	H37Rv	-	>6.25 µg/mL
O=S(=O)(Nc1cc2[nH]c(C3CCCCC3)nc2cc1SCCc1ccccc1)c1ccccc1	-	resazurin	-	inhibition	H37Rv	1 µg/mL	30%
CC(=O)O[C@@]1(C)C(=O)OC/C2=C/CN(C)CC[C@@H](OC(=O)[C@@](O)([C@H](C)Cl)C[C@H]1C)C2=O.c1ccccc1	-	BACTEC	-	inhibition	H37Rv	12.5 µg/mL	2%
CC1(C)N=C(N)N=C(N)N1OCCCOc1cc(Cl)c(Cl)cc1Cl	-	resazurin / fluorescence	-	MIC90	H37Rv	-	1–2 µM
CC(C)(C)CC(C)(O)CN(CC(C)(O)CC(C)(C)C)C(=S)S	-	-	-	MIC	ETA-R	-	3.1 µg/mL
CN(C)c1ccc(/C=C/C(=O)c2cnccn2)cc1	-	-	-	EC50	H37Rv	-	>12.5 µg/mL
CCOC(=O)c1cc2ccccc2[nH]1	-	BACTEC	-	inhibition	H37Rv	6.25 µg/mL	11%
COc1cc(/C=C/C(=O)c2cnccn2)ccc1O	-	-	-	EC50	H37Rv	-	>12.5 µg/mL
CN1CCN(CCCN2c3ccccc3Sc3ccc(C(F)(F)F)cc32)CC1	-	fluorescence	gfp	MIC	H37Rv-GFP	-	6 µg/mL
NC(=O)c1ncn([C@@H]2OC[C@@H](O)[C@@H](O)[C@H]2O)c1N	-	BACTEC	-	inhibition	-	6.25 µg/mL	0%
CN(C)CCCN1c2ccccc2Sc2ccccc21	-	fluorescence	gfp	MIC	H37Rv-GFP	-	>25 µg/mL
Cc1c(NC(=O)CSc2nnc(-c3ccco3)n2C)c(=O)n(-c2ccccc2)n1C	-	resazurin	-	MIC	H37Rv	-	>6.25 µg/mL
CCCCCCCCc1ccc(NCc2ccc(O)c(OC)c2)cc1	-	resazurin	-	MIC90	H37Ra	-	150 µM
NC(Cc1ccc(O)cc1)C(=O)N/N=C/c1ccc2c(c1)OCO2	-	BACTEC	-	MIC bound	H37Rv	-	>12.5 µg/mL
Cc1ccc(-n2c(SCC(=O)Nc3c(C)n(C)n(-c4ccccc4)c3=O)nnc2-c2ccco2)cc1	-	resazurin	-	inhibition	H37Rv	6.25 µg/mL	inactive
COc1cc(CNc2cccc(B3OC(C)(C)C(C)(C)O3)c2)ccc1O	-	resazurin	-	inhibition	H37Ra	200 µM	<50%
CCCCCCCCCCCCCCCCOc1ccc(Cc2cnc(N)nc2N)cc1OC	-	-	-	MIC	H37Rv	-	>68 µM
O=C(NC1CC(c2ccccc2)(c2ccccc2)OC1=O)c1ccccc1	-	BACTEC	-	MIC bound	H37Rv	-	>12.5 µg/mL
COc1ccc(/C=N/N2CCN(c3cc4c(cc3F)c(=O)c(C(=O)O)cn4C3CC3)CC2)cc1	-	fluorescence	-	MIC90	H37Rv	-	6.74 µM
C[C@@H](O)[C@H]1C(=O)N2C(C(=O)O)=C([C@H]3CCCO3)S[C@H]12	THP-1	luminescence	-	MIC90	H37Rv	-	12.35 µM
CCCCOc1ccc(Cc2cnc(N)nc2N)cc1OC	-	-	-	MIC	H37Rv	-	>106 µM
CCCCCCCCCCCCCCCCOCCCCOP(=O)(O)C[C@@H]1O[C@H](CO)[C@@H](O)[C@@H]1O	-	-	-	inhibition	H37Rv	6.25 µg/mL	92%
CCCCc1c2c(nn1C(C)=O)C(=O)C=C(Nc1ccccc1)C2=O	-	BACTEC	-	inhibition	H37Rv	6.25 µg/mL	0%
COc1ccc(-c2oc3cc(OC)cc(O)c3c(=O)c2OC)cc1	-	BACTEC	-	inhibition	H37Rv	100 µg/mL	33%
CO[C@H]1/C=C/O[C@@]2(C)Oc3c(C)c(O)c4c(O)c(c(C=Nc5c(C)n(C)n(-c6ccccc6)c5=O)c(O)c4c3C2=O)NC(=O)/C(C)=C\C=C\[C@H](C)[C@H](O)[C@@H](C)[C@@H](O)[C@@H](C)[C@H](OC(C)=O)[C@@H]1C	-	-	-	MIC	H37Rv	-	>50 µg/mL
O=[N+]([O-])/C=C/c1c(-c2ccccc2)[nH]c2ccccc12	-	resazurin	-	inhibition	H37Rv (ATCC 27294)	6.25 µg/mL	38%
CCCCCCCCCCCCCCCCS(=O)(=O)C[C@@H]1O[C@H](CO)[C@@H](O)[C@@H]1O	-	-	-	EC50	H37Rv	-	>6.25 µg/mL
CCc1ccccc1OCCCON1C(N)=NC(N)=NC1(C)C	-	resazurin / fluorescence	Overexpressing DHFR	MIC90	H37Rv	-	2 µM
Cc1cc(=O)[nH]c(N/N=C/c2cc(Cl)cc(Cl)c2O)n1	-	visual reading	-	MIC	H37Rv	-	0.06 µg/mL
CN(/N=C/c1ccsc1)c1ccccc1	-	resazurin	-	inhibition	H37Rv (ATCC 27294)	6.25 µg/mL	50%
CCCCc1ccc(NCc2ccc(O)c(OC)c2)cc1	-	resazurin	-	EC50	H37Ra	-	111 µM
Cc1ccc(-n2c(SC(C)C(=O)Nc3c(C)n(C)n(-c4ccccc4)c3=O)nnc2-c2ccco2)cc1	-	resazurin	-	MIC	H37Rv	-	>6.25 µg/mL
COc1ccc(C(=O)NN2CCN(c3cc4c(cc3F)c(=O)c(C(=O)O)cn4C3CC3)CC2)cc1	-	fluorescence	-	MIC90	H37Rv	-	>50 µM
O=S(=O)(O)CCCN1c2ccccc2Sc2ccc(C(F)(F)F)cc21	-	fluorescence	gfp	MIC	H37Rv-GFP	-	25 µg/mL
N#Cc1ccc(C(=O)NN2CCN(c3cc4c(cc3F)c(=O)c(C(=O)O)cn4C3CC3)CC2)cc1	-	fluorescence	-	MIC90	H37Rv	-	>50 µM
CO[C@H]1CCC[C@H]2C1=C(C(=O)O)N1C(=O)[C@H]([C@@H](C)O)[C@@H]21	-	resazurin	-	inhibition	H37Rv	1.22 µg/mL	90%
CCCCCCCCCCCCCCCCCCCCP(=O)([O-])C[C@@H]1O[C@H](CO)[C@@H](O)[C@@H]1O	-	-	-	inhibition	H37Rv	6.25 µg/mL	0%
CC1(C)N=C(N)N=C(N)N1OCCCOc1ccc(Cl)cc1Cl	-	resazurin / fluorescence	Overexpressing DHFR	MIC90	H37Rv	-	11.7 µM
C/C(=C\c1cn(Cc2ccccc2)c2ccccc12)[N+](=O)[O-]	-	resazurin	-	inhibition	H37Rv (ATCC 27294)	6.25 µg/mL	30%
Cc1cc(C(=O)N/N=C/c2cc(Cl)cc(Cl)c2O)c2cc(Br)ccc2n1	-	BACTEC	-	MIC bound	H37Rv	-	>12.5 µg/mL
CO[C@H]1CCC[C@H]2C1=C(C(=O)OC(C)OC(=O)OC1CCCCC1)N1C(=O)[C@H]([C@@H](C)O)[C@@H]21	-	resazurin	-	MIC	H37Rv	-	10.6 µM
CO[C@H]1/C=C/O[C@@]2(C)Oc3c(C)c(O)c4c(O)c(c(C=Nc5ccc(C(=O)O)c(O)c5)c(O)c4c3C2=O)NC(=O)/C(C)=C\C=C\[C@H](C)[C@H](O)[C@@H](C)[C@@H](O)[C@@H](C)[C@H](OC(C)=O)[C@@H]1C	-	-	-	MIC	H37Rv	-	>50 µg/mL
COc1c2occc2c(CCl)c2ccc(=O)oc12	-	BACTEC	-	inhibition	H37Rv	12.5 µg/mL	12%
CCCCCCCCCCCCCCCCCCNCc1ccc(O)c(OC)c1	-	resazurin	-	EC50	H37Ra	-	45.3 µM
COC(=O)C(=O)c1c(-c2ccc(O)c(OC)c2)[nH]c2[nH]n(-c3ccccc3)c(=O)c2c1=O	-	BACTEC	-	inhibition	H37Rv	12.5 µg/mL	26%
CO[C@H]1/C=C/O[C@@]2(C)Oc3c(C)c(O)c4c(O)c(c(/C=N/N5CCN(C)CC5)c(O)c4c3C2=O)NC(=O)/C(C)=C\C=C\[C@H](C)[C@H](O)[C@@H](C)[C@@H](O)[C@@H](C)[C@H](OC(C)=O)[C@@H]1C	-	-	-	MIC	13684	-	0.1 µg/mL
CC(=O)Nc1ccc(/C=N/NC(N)=S)cc1	-	-	-	MIC50	14 strains	-	0.1 µg/mL
O=C(NN1CCN(c2cc3c(cc2F)c(=O)c(C(=O)O)cn3C2CC2)CC1)c1ccc(OC(F)(F)F)cc1	-	fluorescence	-	MIC90	H37Rv	-	>50 µM
CC(C)(C)c1ccccc1OCCCON1C(N)=NC(N)=NC1(C)C	-	resazurin / fluorescence	-	MIC90	H37Rv	-	0.3 µM
CC(O)C1C(=O)N2C(C(=O)O)C=C(SC3CN(C4=NCCC4)C3)C12	THP-1	luminescence	-	MIC50	H37Rv	-	4.51 µM
CCCCCCCCCCCCCCCOCCCCCCCCCCS(=O)(=O)C[C@@H]1O[C@H](CO)[C@@H](O)[C@@H]1O	-	-	-	inhibition	H37Rv	6.25 µg/mL	0%
O=C(O)CCCn1nnc2c(=O)[nH][nH]c(=O)c21	-	BACTEC	-	MIC bound	H37Rv	-	>12.5 µg/mL
CCCCCOc1ccc(Cc2cnc(N)nc2N)cc1OC	-	-	-	MIC	H37Rv	-	50.6 µM
CC1=CC(=O)c2ccccc2C1=O	-	resazurin	-	inhibition	H37Rv	6.25 µg/mL	-6%
Cc1c(NC(=O)CSc2nnc(-c3ccco3)n2-c2ccc(Cl)cc2)c(=O)n(-c2ccccc2)n1C	-	resazurin	-	inhibition	H37Rv	6.25 µg/mL	inactive
CC(O)C(NCNC(=O)C1=C(O)C2(O)C(=O)C3=C(O)c4c(O)cccc4C(C)(O)C3CC2C(N(C)C)C1=O)C(=O)O	-	BACTEC	-	MIC bound	H37Rv	-	>12.5 µg/mL
CCCCCCCCCCP(=O)([O-])C[C@@H]1O[C@H](CO)[C@@H](O)[C@@H]1O	-	-	-	inhibition	H37Rv	6.25 µg/mL	0%
OCCN(CCCN(CCO)C(=S)S)C(=S)S	-	BACTEC	-	inhibition	H37Rv	12.5 µg/mL	30%
Cc1ccc(Oc2cc3nc(C4CCCCC4)[nH]c3cc2NC(=O)c2ccc(C)cc2)cc1	-	resazurin	-	inhibition	H37Rv	1 µg/mL	36%
O=C(N/N=C/c1ccc(O)cc1)C(=O)N/N=C/c1ccc(O)cc1	-	BACTEC	-	inhibition	H37Rv	12.5 µg/mL	26%
CO[C@H]1/C=C/O[C@@]2(C)Oc3c(C)c(O)c4c(O)c(c(/C=N/N=C/N5CCCCC5)c(O)c4c3C2=O)NC(=O)/C(C)=C\C=C\[C@H](C)[C@H](O)[C@@H](C)[C@@H](O)[C@@H](C)[C@H](OC(C)=O)[C@@H]1C	-	-	-	MIC	isolates 4	-	50 µg/mL

7 of the rows above, restated:

structure	cell line	method	mutations	read-out	strain or isolate	tested at	result
CCCCCCCCCCCCCCCCCCCCP(=O)([O-])C[C@@H]1O[C@H](CO)[C@@H](O)[C@@H]1O	-	-	-	inhibition	H37Rv	6.25 µg/mL	0%
CCCCCCCCc1ccc(NCc2ccc(O)c(OC)c2)cc1	-	resazurin	-	MIC90	H37Ra	-	150 µM
CN(/N=C/c1ccsc1)c1ccccc1	-	resazurin	-	inhibition	H37Rv (ATCC 27294)	6.25 µg/mL	50%
CC(O)C1C(=O)N2C(C(=O)O)C=C(SC3CN(C4=NCCC4)C3)C12	THP-1	luminescence	-	MIC50	H37Rv	-	4.51 µM
COc1ccc(-c2oc3cc(OC)cc(O)c3c(=O)c2OC)cc1	-	BACTEC	-	inhibition	H37Rv	100 µg/mL	33%
Cc1ccc(Oc2cc3nc(C4CCCCC4)[nH]c3cc2NC(=O)c2ccc(C)cc2)cc1	-	resazurin	-	inhibition	H37Rv	1 µg/mL	36%
CC(C)(C)CC(C)(O)CN(CC(C)(O)CC(C)(C)C)C(=S)S	-	-	-	MIC	ETA-R	-	3.1 µg/mL